Human monoclonal antibodies against the spike receptor-binding domain (heavy:light variable regions). IC50 against pseudoviruses bearing the spike of naturally observed variants; lower = stronger; >10 µg/ml means not reached at the top dose. No active / inactive call. The stated detection limit is 0.0005 µg/ml; values near or below 0.001 µg/ml lie at the floor of the assay.
B1: BD56-1929 (protein)
chain 1: QLQLQESGPGLLKPSETLSLTCTVSGGSINTNNFYWGWIRQPPGKGLEWIGNMYYSGTTHFNPSLKSRVTTSVDTSKKQFSLKLTSVTAADTAVYFCARGTTYFDRRGSRVSDPFDRWGQGTLVIVSS
chain 2: DIQMTQSPSTLSASVGDRVTITCRASQNISTWLAWYQQKPGKAPNLLIYGASDLESGVPSRFSGSGSGTAFTLTISSLQPDDFVTYYCQHYNGYFWTFGQGTKVEIK
B2: BD56-1941 (protein)
chain 1: EVQLVESGGGLVQPGGSLRLSCAASGITVSSNYMTWVRQAPGKGLEWVSVIYAGGSTFYADSVKDRFTISRDNSKNTLYLQMKSLRAEDTAVYYCVRDLVIWGMDVWGPGTTVTVSS
chain 2: EILLTQSPSSLSASVGDRVTLTCRASQGINNNLAWYQQKSGKAPKLLIYGASTLQSGVPSRFSGSGSGTDFTLTISSLQPEDFATYYCQLLDSYPQTFGQGTKVEIK
B3: BD56-1944 (protein)
chain 1: EVQLVESGGGLVQPGGSLRLSCAASGFTVSSNYMNWVRQAPGKGLEWVSVVYTGVSAYYADSVKGRFTISRDYSKNTLYLQMDSLRVEDTAVYYCARVWYCGSDCEAFDIWGQGTMVTVSS
chain 2: QSVLTQPPSVSGAPGQRVSISCTGSSSNIEAGYDVNWYQQLPGTAPKLLIYGDSNRPSGVPDRFSGSKSGTSASLAITGLQAEDEADYYCQSYDNSLRGSVFGGGTKLTVL
B4: BD57-0102 (protein)
chain 1: EVHLVESGGGLVQPGRSLRLSCAASGFTFDDYAMHWVRQAPGKGLEWVSGISWNSGGIAYADSVRGRFTISRDSAKNSLYLQMNSLRPEDTAFYYCAKDIGAGHGDYFDFWGQGTLVTVSS
chain 2: SYVLTQPPSVSVAPGMTARITCGGDQIGSKSVHWYQQKPGQAPVLVVYYDSDRPSGIPDRFSGSNSGNTATLTISRVEAGDEADYYCQVWGSSSDHPYVFGGGTKVTVL
B5: BD57-0105 (protein)
chain 1: EVQLVESGGGLVQPGRSLRLSCAASGFTFDDFAMHWVRQAPGKGLEWVSGITWNGDIIAYADSVKGRFTISRDNPRNSLYLQMNGLRPEDTALYYCVKGEKQQLINEPLDYWGQGTLVTVSS
chain 2: SSVLTQPPSVSVAPGKTARITCGGNDIGSKNVHWYQQKPGQAPVLVIYYDNDRPSGIPERFSGSNSGNTATLTISRVEAGDEADYYCQVWDPHVLFGGGTKLTVL
B6: BD57-0111 (protein)
chain 1: QVQLVESGGGVVQPGRSLRLSCAASGFTFSTFAMHWVRQAPGKGLEWVAVILYDGSYKDYGDSVKGRFTISRDNSKNTLYLQMNSLRADDTAVYYCARDQGKMTTHFDYWGQGTLVTVSS
chain 2: DIQMTQSPSSLSASVGDRVTITCRASQSISGYLNWYQQKPGKAPKLLIYDASSLQSGVPSRFSGSGSGTDFTLTIRSLEPEDFATYYCQQSYATPPWTFGQGTKVEIK
B7: BD57-0115 (protein)
chain 1: EVQLAQSGAEVKKPGESLKISCKGSGYSFNTYWIGWVRQMPGKGLEWMGIIYPEDSDTRYSPSFQGQVTISADKSINTAYLQWNSLKASDSAMYYCALIVGASNLGCFDYWGQGTTVTVSS
chain 2: EIVMTQSPATLSVSPGERATLSCRASQSVSDNLAWYQQKPGQAPRLLIYGASSRATGIPGRFSGSGSGTEFTLTISSLQSEDFAVYYCQQYNNWYTFGQGTKLEIK
B8: BD57-0119 (protein)
chain 1: QVQLVQSGAELKKPGSSVKVSCKSSGGSFSIYAISWVRQDPGQGLVWMGGIIPITNRPTYAQKFLGRVTITADESTSTAYMELSSLTSDDTGVYYCARDSTLRDWKPGLTWFDPWGQGTLVTVSS
chain 2: DIQMTQSPSSLSASVGDRVTITCRASLNINDFLNWYQQKPGKAPKLLIYAASSLQTGVPSRFSGSGSGTDFTLTISSLQPEDLAIYYCQQSFSPPRTFGQGTKVEIK
B9: BD57-0127 (protein)
chain 1: EVQLVESGGGLVQPGGSLRLSCAASGFTFSSDDMHWVRQSTGKGLEWVSAIGTAGDTYYVDSVKGRFTISREDAKNSLYLQMNSLRAGDTAVYYCARGRAVYDGSRYYYFFDYWGQGTLVTVSS
chain 2: DIQMTQSPSSLSASVGDRVTITCRASQSIARYLNWYQQKPGKAPKLLIYGASSLQSGVPSRFSGSGSGTDFTLTISSLQPEDFATYSCQQSYITTHYTFGQGTKLEIK
B10: BD57-0134 (protein)
chain 1: EVQMVESGGGLIQPGGSLRLSCAASGFTVSSNYMSWVRQAPGKGLEWVSAIYSGGSTFYADSVKGRFTISRDNSKNTLYLQMNSLRTEDTAVYYCVRDAFFVQYTTSDWGQGTLVTVSS
chain 2: EIVMTQSPATLSVSPGERATLSCRASQSVGNNLAWYQQKPGQAPRLLIYGASTRASGIPARISGSGSGTEFTLTVSSLQSEDFAVYYCQQYIDWPPRYTFGQGTKLEIK
B11: BD57-0137 (protein)
chain 1: EAQLVESGGGLVQPGRSLRLSCAASGFAFDDYAFHWVRQAPGKGLEWVSSISWDGNTIDYADSVKGRFTISRDNAKNAVYLQLKSLRLEDSALYYCVKDSRAHYDILAGYAGATPWGRGTRVTVSS
chain 2: DIVMTQSPVSLPVIPGEPASISCRSSQSLLHSNGHNYLDWYLQKPGQSPQLLIYMGSNRASGVPDRFSGSGSGTDFTLKISRVEAEDVGIYYCMQGLQTPRTFGQGTKLEIK
B12: BD57-0138 (protein)
chain 1: QVQLVQSGAELKKPGSSVKVSCKASGGSFRSKSITWVRQAPGQGLEWMGKIIPILGVASYAEKFEGRVTITADKSTGTAYMELTSLRSEDTAMFYCATVRGYSGSGSNDYFDNWGLGTLVTVSS
chain 2: QSVLTQPPSVSGAPGQRVTISCTGSNSNIGAGYDIHWYRQLPGTAPKLLISVNTNRPSGVPDRFSGSKSGTSASLAISGLQAEDEADYYCQSYDSSLSESVFGGGTKLTVL

Assays:
Assay in all cases: pseudovirus neutralization IC50; higher = weaker neutralization
[1] = target: SARS-CoV-2 Omicron BA.1 spike pseudovirus
Protocol: (§1)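 Single-round VSV luciferase pseudovirus mixed with antibody dilutions for 1 h and put on Huh-7 cells for about a day; IC50 from the dose curve.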

[2] = target: SARS-CoV-2 Omicron BA.2 spike pseudovirus
Protocol: as §1

[3] = target: SARS-CoV-2 Omicron BA.2.75 spike pseudovirus
Protocol: as §1

[4] = target: SARS-CoV-2 Omicron BA.5 spike pseudovirus
Protocol: as §1

[5] = target: SARS-CoV-2 Omicron BQ.1.1 spike pseudovirus
Protocol: as §1

[6] = target: SARS-CoV-2 Omicron XBB spike pseudovirus
Protocol: as §1

[7] = target: SARS-CoV-2 early D614G spike pseudovirus
Protocol: as §1

Row | Binder | pseudovirus neutralization IC50 [1] | pseudovirus neutralization IC50 [2] | pseudovirus neutralization IC50 [3] | pseudovirus neutralization IC50 [4] | pseudovirus neutralization IC50 [5] | pseudovirus neutralization IC50 [6] | pseudovirus neutralization IC50 [7]
1 | B1 | > 10 µg/mL | > 10 µg/mL | > 10 µg/mL | > 10 µg/mL | > 10 µg/mL | > 10 µg/mL | 0.0269 µg/mL
2 | B2 | 0.0771 µg/mL | 0.0409 µg/mL | 0.0677 µg/mL | 0.0182 µg/mL | 3.67 µg/mL | 2.9 µg/mL | 0.00664 µg/mL
3 | B3 | 0.111 µg/mL | 0.204 µg/mL | 0.0838 µg/mL | > 10 µg/mL | > 10 µg/mL | > 10 µg/mL | 0.000668 µg/mL
4 | B4 | 2.6 µg/mL | 4.86 µg/mL | 4.47 µg/mL | 4.68 µg/mL | > 10 µg/mL | 4.85 µg/mL | > 10 µg/mL
5 | B5 | 4.68 µg/mL | 6.11 µg/mL | 4.11 µg/mL | 4.63 µg/mL | > 10 µg/mL | > 10 µg/mL | > 10 µg/mL
6 | B6 | 1.86 µg/mL | 2.76 µg/mL | 2.54 µg/mL | 2.21 µg/mL | 1.38 µg/mL | 3.32 µg/mL | 2.34 µg/mL
7 | B7 | 4.64 µg/mL | 5.45 µg/mL | 2.17 µg/mL | 2.94 µg/mL | > 10 µg/mL | 7.99 µg/mL | > 10 µg/mL
8 | B8 | 0.354 µg/mL | 0.262 µg/mL | 0.00183 µg/mL | 2.23 µg/mL | > 10 µg/mL | > 10 µg/mL | 1.18 µg/mL
9 | B9 | > 10 µg/mL | > 10 µg/mL | > 10 µg/mL | > 10 µg/mL | > 10 µg/mL | > 10 µg/mL | > 10 µg/mL
10 | B10 | 0.00641 µg/mL | 0.00764 µg/mL | 0.00937 µg/mL | 0.00422 µg/mL | 0.0131 µg/mL | 0.017 µg/mL | 0.00438 µg/mL
11 | B11 | > 10 µg/mL | > 10 µg/mL | > 10 µg/mL | > 10 µg/mL | > 10 µg/mL | > 10 µg/mL | 0.151 µg/mL
12 | B12 | 0.0184 µg/mL | 0.0299 µg/mL | 0.0153 µg/mL | 1.16 µg/mL | > 10 µg/mL | 2.84 µg/mL | 0.107 µg/mL
